# Experimental data as given in patent US9499509B2, “Dihydrochalcone derivatives and their use as antibiotic agents” (UNIVERSITÉ DU QUÉBEC À CHICOUTIMI, priority 2012, dated 2016).
# System: WS-1 cell lines
# Assay: Cytotoxicity assay on WS-1 (Example 2)
# Type: cell-based
# Conditions: ratio of toxicity on WS-1 to toxicity on S. aureus WT ATCC 25923
# Protocol: Cytotoxicity assay. […] The WS-1 cell lines were provided by ATCC. […] The compounds tested were then added at 8 different concentrations. […] In Table 7, the therapeutic indexes of compounds IV to XXI are presented.
row,Structure (SMILES),Therapeutic index
1,O=C(CCc1ccccc1)c1c(O)cc(O)c2c1OC(c1ccc(O)cc1)CC2 (racemic) [IV],12
2,COc1ccc(CCC(=O)c2c(O)cc(O)c3c2OC(c2ccc(O)cc2)CC3)cc1 (racemic) [VII],11
3,O=C(CCc1ccccc1)c1c(O)cc2c(c1O)CC(O)C(c1ccc(O)cc1)O2 (racemic) [XIII],3
4,COc1ccc(CCC(=O)c2c(O)cc(O)c3c2OC(c2ccc(O)cc2)C(O)C3)cc1 (racemic) [XIX],3
5,O=C(CCc1ccccc1)c1c(O)cc(O)c2c1OC(c1ccc(O)cc1)C(O)C2 (racemic) [XVI],8
6,COc1cc(O)c(C(=O)CCc2ccc(O)cc2)c2c1CCC(c1ccc(O)cc1)O2 (racemic) [X],3
7,COc1ccc(CCC(=O)c2c(O)cc(O)c3c2O[C@@H](c2ccc(O)cc2)CC3)cc1 [IX],6
8,COc1ccc(CCC(=O)c2c(O)cc(O)c3c2O[C@H](c2ccc(O)cc2)CC3)cc1 [VIII],1
9,O=C(CCc1ccccc1)c1c(O)cc(O)c2c1O[C@@H](c1ccc(O)cc1)CC2 [VI],18
10,O=C(CCc1ccccc1)c1c(O)cc(O)c2c1O[C@H](c1ccc(O)cc1)CC2 [V],20
11,COc1cc(O)c(C(=O)CCc2ccc(O)cc2)c2c1CC[C@H](c1ccc(O)cc1)O2 [XII],86
12,O=C(CCc1ccccc1)c1c(O)cc2c(c1O)CC(O)C(c1ccc(O)cc1)O2 (centres unmarked) [XIV],4
13,COc1cc(O)c(C(=O)CCc2ccc(O)cc2)c2c1CC[C@@H](c1ccc(O)cc1)O2 [XI],128
14,O=C(CCc1ccccc1)c1c(O)cc(O)c2c1OC(c1ccc(O)cc1)C(O)C2 (centres unmarked) [XVIII],5
15,O=C(CCc1ccccc1)c1c(O)cc(O)c2c1OC(c1ccc(O)cc1)C(O)C2 (centres unmarked) [XVII],3
16,O=C(CCc1ccccc1)c1c(O)cc2c(c1O)CC(O)C(c1ccc(O)cc1)O2 (centres unmarked) [XV],3
17,COc1ccc(CCC(=O)c2c(O)cc(O)c3c2OC(c2ccc(O)cc2)C(O)C3)cc1 (centres unmarked) [XXI],1
18,COc1ccc(CCC(=O)c2c(O)cc(O)c3c2OC(c2ccc(O)cc2)C(O)C3)cc1 (centres unmarked) [XX],3

# System: WS-1 cell lines
# Assay: Cytotoxicity assay on WS-1 (Example 1)
# Conditions: ratio of toxicity on WS-1 to toxicity on S. aureus WT ATCC 25923
# Protocol: Cytotoxicity assay. The cytotoxicity assay was performed in 96-well plates (BD Falcon). The WS-1 cell lines were provided by ATCC. The WS-1 was cultured in DMEM+10% fetal calf serum. The cells were plated in a volume of 100 μL at a density of 5000 cells per well and incubated at 37° C.+5% CO2 for 24 h to promote cell adhesion.
# The plates were incubated at 37° C.+5% CO2 for 48 h. The cells were then washed with 100 μL of HBSS and 150 μL of a 2% resazurin were added to the wells.
# The therapeutic index is the ratio between the toxicity on normal cells, in this case fibroblast, and the toxicity on bacteria.
row,Structure (SMILES),Therapeutic index
1,O=C(CCc1ccccc1)c1c(O)cc(O)c(C/C=C/c2ccc(O)cc2)c1O [Compound III],9
2,COc1ccc(CCC(=O)c2c(O)cc(O)c(C/C=C/c3ccc(O)cc3)c2O)cc1 [Compound II],10
